Measured values as given in PubChem BioAssay AID743093 (The Scripps Research Institute Molecular Screening Center, 2013).
The entries are a selection whose mix differs from that of the whole data set. Activity calls are given as the source filed them.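 The calls were made as follows: active = inhibition above the mean plus 3 SD of compounds within the control limits, set per campaign (cut at about 38% in these data); inactive = the rest.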

experiment: reduced ATP in mature Plasmodium gametocytes – ATP luminescence, HTS, primary screen (AID 743093);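 also: 0% = DMSO wells and 100% = medium only without gametocytes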; details: P. falciparum stage V gametocytes, 24 h, at 10.9 µM, hits give high values

| Structure (SMILES) | inhibition |
| --- | --- |
| CCOP(=O)(Nc1cccc2ccccc12)OCC | inactive: 6.59% |
| O=[As](O)(O)c1cccnc1 | inactive: 12.8% |
| O=C(OC1CN2CCC1CC2)c1ccc(Cl)cc1 (centres undefined) | inactive: -3.68% |
| Cc1cccc(OCC(=O)OC2CN3CCC2CC3)c1 (centres undefined) | inactive: 11.3% |
| O=[As](O)(c1cccc(O)c1)c1cccc(O)c1 | inactive: -5.03% |
| O=[N+]([O-])c1ccc2c(c1)nnn2O | inactive: -12.2% |
| CN(C)C(=O)c1cc([N+](=O)[O-])cc2c1-c1c(cc([N+](=O)[O-])cc1[N+](=O)[O-])C2=O | inactive: -34.9% |
| CCOP1(=S)c2c(C)nn(CCC#N)c2N=C(c2ccc(F)cc2)N1C (centres undefined) | inactive: -7.06% |
| CCOP1(=S)c2c(C)nn(CCC#N)c2N=C(c2ccccc2F)N1C (centres undefined) | inactive: -22.7% |
| O=P(Nc1nccs1)(Oc1ccccc1)Oc1ccccc1 | inactive: 1.19% |
| Nc1ccccc1[As](=O)(O)c1ccccc1 | inactive: 12.9% |
| Cc1ccc(OP(=O)(Nc2ccccn2)Oc2ccc(C)cc2)cc1 | inactive: -29.6% |
| Cc1ccccc1OP(=O)(Nc1ccccn1)Oc1ccccc1C | inactive: -11.8% |
| CN(C)C(=O)Oc1noc2ccccc12 | inactive: -16.3% |
| O=C(NC1CCS(=O)(=O)C1)NP(=S)(Oc1ccccc1)Oc1ccccc1 (centres undefined) | inactive: 0.52% |
| CCNC(=S)/N=C(\N)N[N+](=O)[O-] | inactive: -15.1% |
| c1ccc(-c2nn[nH]n2)c(-c2nn[nH]n2)c1 | inactive: -5.28% |
| Cc1ccc(NP(=O)(Oc2cccc(C)c2)Oc2cccc(C)c2)nc1 | inactive: -4.11% |
| C[C@H]1OP(=O)(Oc2ccccc2)C[C@@H]2O[C@@H]21 (some centres undefined) | inactive: -11.6% |
| C[C@@H]1C=CCP(=O)(Oc2ccccc2)O1 (some centres undefined) | inactive: -20.4% |
| CC(=O)Nc1ccc([As](=O)(O)O)c(O)c1 | inactive: 7.78% |
| CC(=O)Nc1ccc(Oc2c([N+](=O)[O-])cc([N+](=O)[O-])cc2[N+](=O)[O-])cc1 | inactive: -11.2% |
| CCOc1ccc(C2=NCC(CBr)S2)cc1 (centres undefined) | inactive: 13.1% |
| CC(C)(C)C(=O)NC(Sc1ccccc1)C(Cl)(Cl)Cl (centres undefined) | inactive: -12.6% |
| CC(C)C(=O)NC(Sc1ccccc1)C(Cl)(Cl)Cl (centres undefined) | inactive: 11.5% |
| CC(=O)NC(SC(=S)N(C)C)C(Cl)(Cl)Cl (centres undefined) | inactive: 4.17% |
| O=[N+]([O-])c1ncn(CCn2cnc([N+](=O)[O-])n2)n1 | inactive: 4.03% |

| Structure (SMILES) | inhibition |
| --- | --- |
| O=[As](O)(c1ccccc1)c1ccc(O)cc1 | inactive: -16.8% |
| C(Cc1nn[nH]n1)Cc1nn[nH]n1 | inactive: 12.5% |
| Nc1ccc([As](=O)(O)c2ccc([N+](=O)[O-])cc2)cc1 | inactive: 12.4% |
| O=C(OC1CN2CCC1CC2)c1cccc(Cl)c1 (centres undefined) | inactive: 1.75% |
| O=P(Nc1ccccn1)(c1ccc(Br)cc1)c1ccc(Br)cc1 | inactive: -5.35% |
| O=P(Nc1nc2ccccc2s1)(c1ccccc1)c1ccccc1 | inactive: 23.1% |
| CC(C)(C)C(=O)NC(Sc1ccncn1)C(Cl)(Cl)Cl (centres undefined) | inactive: -2.22% |
| O=[N+]([O-])c1ncn(CCn2ncnc2[N+](=O)[O-])n1 | inactive: 11.2% |
| O=[N+]([O-])c1cccc(NC2=NCC(CBr)S2)c1 (centres undefined) | inactive: -2.28% |
| Nc1ccc([As](=O)(O)c2ccc(N)cc2)cc1 | inactive: -16.4% |
| C[N+]1=C2C=CC=CC=C2SC12C([N+](=O)[O-])=CC([N+](=O)[O-])=C[C-]2[N+](=O)[O-] (centres undefined) | inactive: -25% |
| CCN(/C(=N/P(=O)(N1CCOCC1)N1CCOCC1)N1CCOCC1)c1ccc(OC)cc1 | inactive: -1.38% |
| CC(C)=N/N=C(\N)N[N+](=O)[O-] | inactive: -0.35% |
| Cc1ccc(NP(=O)(Oc2ccccc2)Oc2ccccc2)nc1 | inactive: -32.5% |
| CCc1nc2c(n1)c1c(non1O)c1c2no[n+]1[O-] | inactive: -0.68% |
| Nc1cc(N)c2nonc2c1[N+](=O)[O-] | inactive: -34.3% |
| O=C(NC(Sc1ccncn1)C(Cl)(Cl)Cl)c1ccccc1 (centres undefined) | inactive: 2.33% |
| NC(=O)c1cc([N+](=O)[O-])cc([N+](=O)[O-])c1N | inactive: 19.5% |
| Cc1ccc(N/C(=N/P(=O)(N2CCOCC2)N2CCOCC2)N2CCOCC2)cc1 | inactive: -14.1% |
| COc1ccccc1OP(=O)(Nc1ccc(C)cn1)Oc1ccccc1OC | inactive: 13.9% |
| Cc1ccc(OP(=O)(Nc2nccs2)Oc2ccc(C)cc2)cc1 | inactive: 23.8% |
| CN1CCCC(OC(=O)C(c2ccccc2)c2ccccc2)C1 (centres undefined) | inactive: 9.83% |
| Clc1ccc(Cl)c(NC2=NCC(CBr)S2)c1 (centres undefined) | inactive: -27.6% |
| CCN(N=Nc1nonc1N)c1nonc1N | inactive: 19% |
| O=P(Nc1nc2ccc(Cl)cc2s1)(c1ccccc1)c1ccccc1 | inactive: 10.4% |
| Cc1cc(SC(NC(=O)c2ccc(F)cc2)C(Cl)(Cl)Cl)ncn1 (centres undefined) | inactive: 4.36% |
| Cc1ccc(NP(=O)(Oc2ccccc2F)Oc2ccccc2F)nc1 | inactive: 20.6% |
